# Taken from: PubChem BioAssay AID1259414 (Drosophila RNAi Screening Center, 2018)
# Aim: 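Fly genes that alter Wolbachia amount inside host cells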 (primary screen)
# System: Drosophila JW18 cells infected with Wolbachia
# Reagent: long dsRNA against Drosophila genes, 0.25 µg dsRNA per well of a 384-well plate
# Time to read-out: 5 days
# Conditions: cells persistently infected with Wolbachia before knock-down; no added drug
# Read-out: 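Imaged fluorescence in situ signal for Wolbachia 23S rRNA per DAPI-counted host cell, given as a robust z-score within each plate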
# Direction: Wolbachia per cell robust z: higher = more Wolbachia per host cell than the plate typical
# Hit rule: 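Hit when robust z is 1.5 or more, or -1.5 or less, in at least two of three replicates; excludes dsRNAs with several or no targets, genes not expressed in JW18 and well A1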
# The deposit covers about 24,000 reagents; shown is an unselected part of those with a known target gene and a result. Over the whole deposit, about 1,210 (5%) were called active. 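Inactive calls also include excluded dsRNAs with several or no targets, genes unexpressed in JW18, and well A1, regardless of score.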 A plus sign joins genes that one reagent is predicted to hit.
"Wolbachia per cell robust z, rep 1","Wolbachia per cell robust z, rep 2","Wolbachia per cell robust z, rep 3",call,gene,dsRNA
0.374,-0.161,-0.288,inactive,Tes (GeneID 36965),DRSC06996
0.209,-0.196,-0.357,inactive,Btk (GeneID 34132),DRSC02008
0.353,-1.68,-0.586,inactive,Btk (GeneID 34132),DRSC02666
-2.16,-0.156,-0.328,inactive,Btk (GeneID 34132),DRSC22427
-3.82,-3.16,0.254,inactive,CG32645 (GeneID 32264),DRSC19683
0.314,-0.571,-0.306,inactive,CG32645 (GeneID 32264),DRSC19889
-1.76,-2.42,-0.552,inactive,Acp98AB (GeneID 12798279),DRSC21837
0.862,0.799,-0.223,inactive,CR14117 (GeneID 39473),DRSC10121
-0.822,0.0118,-2.11,inactive,CR14117 (GeneID 39473),DRSC25950
0.251,0.808,0.122,inactive,Jon65Aii (GeneID 38684),DRSC10665
0.151,0.767,1.5,inactive,CG6424 (GeneID 37012),DRSC05936
-0.574,-0.584,-0.268,inactive,CG6424 (GeneID 37012),DRSC28768
0.0439,-0.9,0.779,inactive,Alp1 (GeneID 40372),DRSC11781
1.14,-0.223,-0.0843,inactive,Rchy1 (GeneID 33901),DRSC23118
0.0311,0.512,-1.61,inactive,Rchy1 (GeneID 33901),DRSC26775
1.18,0.604,1.42,inactive,CG31808 (GeneID 10178782),DRSC22962
0.209,0.674,1.18,inactive,CG31808 (GeneID 10178782),DRSC29167
0.639,0.565,2.04,inactive,CG8292 (GeneID 34125),DRSC03082
0.22,-1.43,-0.3,inactive,mt:ND5 (GeneID 19893549),DRSC40576
0.111,0.264,0.23,inactive,lolal (GeneID 44703),DRSC06948
0.228,0.573,0.369,inactive,subdued (GeneID 42340),DRSC15137
0.28,0.0768,-0.262,inactive,CG7376 (GeneID 38715),DRSC10829
-0.942,-0.205,-0.534,inactive,Gyf (GeneID 43842),DRSC17202
-1.96,-1.09,-0.398,inactive,Gyf (GeneID 43842),DRSC28907
-1.63,-0.66,0.0961,inactive,Gyf (GeneID 43842),DRSC41273
0.886,0.815,-1.41,inactive,alpha-Est1 (GeneID 40909),DRSC12612
0.402,-2.03,-1.08,inactive,Fsn (GeneID 36460),DRSC06875
0.216,0.331,0.491,inactive,Fsn (GeneID 36460),DRSC27704
1.61,-1.68,0.566,inactive,beta-Spec (GeneID 32746),DRSC20311
-0.93,-1.79,-2.61,active,beta-Spec (GeneID 32746),DRSC40855
-2.78,-0.547,-0.871,inactive,Spp (GeneID 33227),DRSC00328
0.982,0.659,0.474,inactive,Rrp47 (GeneID 32558),DRSC20124
-11.2,-7.14,-0.265,active,Rrp47 (GeneID 32558),DRSC25568
-3.03,-3.46,-1.04,inactive,Menl-2 + Menl-1,DRSC07469
-0.482,0.655,-2.08,inactive,Menl-2 + Menl-1,DRSC07470
-0.707,0.357,-3.26,inactive,mRpL14 (GeneID 31222),DRSC18597
-1.13,-0.949,-0.275,inactive,mRpL14 (GeneID 31222),DRSC24034
0.903,0.393,-1.07,inactive,CG31010 (GeneID 318555),DRSC14006
0.336,-0.507,-0.298,inactive,Noc1 (GeneID 39240),DRSC10921
-0.371,-0.818,-3.56,inactive,Hat1 (GeneID 40716),DRSC12298
0.862,1.09,0.897,inactive,Hat1 (GeneID 40716),DRSC29235
0.526,-0.0848,0.368,inactive,CG3706 (GeneID 53540),DRSC18649
-0.0211,-0.389,-0.645,inactive,Tet (GeneID 38347),DRSC08550
-0.309,-0.223,-0.221,inactive,Tet (GeneID 38347),DRSC08646
-0.883,-1.09,-0.187,inactive,Tet (GeneID 38347),DRSC26922
0.158,-1.91,-4.01,active,Tet (GeneID 38347),DRSC28377
